Anti-infective test results gathered from many reports (values: NIAID ChemDB through PubChem).

Shared fields: whole-cell or culture tests; species: HIV-1

ECn is the concentration giving n% inhibition of infection, replication or growth. An empty or dashed field is not shown. Lines come from different laboratories, so protocols vary.

compound	method	strain or isolate	endpoint	mutations	cell line	result
Cc1cn([C@H]2C=C[C@@H](CO)O2)c(=O)[nH]c1=O	-	IIIB	EC50	-	CEM + CEM/0	0.16 µM
CC(=O)Nc1cnc(Oc2c(Br)cc(Br)cc2Br)nc1Nc1ccc(C#N)cc1	MTT	IIIB	EC50	-	MT-4	20 µM
CCOCn1c2c(c(=O)[nH]c1=O)-c1ccccc1CC2	-	IIIB	EC50	-	C8166	>5 µM
CC(C)(CS(=O)(=O)[O-])[NH2+]C(=O)C(CC(F)(OC(F)(F)C(F)(OC(F)(F)C(F)(OC(F)(F)C(F)(F)C(F)(F)F)C(F)(F)F)C(F)(F)F)C(F)(F)F)C(F)(OC(F)(F)C(F)(OC(F)(F)C(F)(OC(F)(F)C(F)(F)C(F)(F)F)C(F)(F)F)C(F)(F)F)C(F)(F)F	p24	IIIB	EC50	-	PBMC	7.7 µg/mL
O=C(NCCCC(NC(=O)c1cc(O)c(O)c(O)c1)C(=O)O)c1cc(O)c(O)c(O)c1	cytopathic effect / neutral red	LAI	EC50	-	MT-2	2.5 µM
Fc1ccccc1C1SCc2nc3cc4ccccc4cc3n21	-	RF	EC50	-	CEM + CEM-SS	>200 µM
COC(=O)[C@H](CCCCNC(=O)/C=C/c1ccc(O)c(O)c1)NC(=O)/C=C/c1ccc(O)c(O)c1	cytopathic effect / neutral red	LAI	EC50	-	MT-2	10 µM
CN(C)CCNc1c2c(nc3ccccc13)-c1ccsc1CC2	p24	LAV	EC50	-	PBMC	4 µM
Cc1nn(C(C)C)c(Sc2cc(Cl)cc(Cl)c2)c1Cc1ccncc1	cytopathic effect / MTT	HXB2	EC50	-	MT-4 + MT4	0.003 µM
O=C1CC2CCC1C1C(=O)N(CCCCN3CCN(c4ccccc4O)CC3)C(=O)C21	MTT	-	EC50	-	MT-4	>100 µM
CCc1ccc(NC(=O)C2=C(C)NC(=O)C3C(N)=NN=C23)cc1	MTT	IIIB	EC50	-	MT-4	98 µg/mL
O=C(O)c1cc(-n2cccc2)ccc1Cl	p24	IIIB X4 CLADE B	EC90	-	MT-2	5.85 µM
Cc1nc(C(=O)NCCCN)cc2c1[nH]c1ccccc12	cytopathic effect	IIIB	EC50	-	MT-4	>100 µM
Cc1cc(C=O)cc(C)c1Oc1ncc(N)c(Nc2ccc(C#N)cc2)n1	MTT	IIIB	EC50	-	MT-4	0.066 µM
O=C(/C=C/c1ccc(O)c(O)c1)NCCCC(NC(=O)/C=C/c1ccc(O)c(O)c1)C(=O)O	cytopathic effect / neutral red	LAI	EC50	-	MT-2	7.2 µM
NC(=O)CCNC(=O)c1ccccc1SCc1ccc(OP2(=O)OCc3ccccc3O2)cc1	XTT	HT/92/599	EC50	-	PBMC	20.4 µM
CC(C)(C)OC(=O)N(CCCCCC(=O)Nc1ccn([C@H]2CS[C@@H](CO)O2)c(=O)n1)CCCCCN(Cc1ccccc1)C(=O)OC(C)(C)C	syncytia	PAR	EC50	-	Macrophage + Monocytes/macrophages	0.05 µM
Cc1cc(S(=O)(=O)Nc2nnc3c4ccccc4cnn23)c(S)cc1Cl	p24	Calanolide-resistant	EC50	-	CEM	26.5 µM
CN1CCN(c2cc(-c3ccccc3)nc3ccccc23)CC1	p24	LAV	EC50	-	PBMC	34.8 µM
COC(=O)[C@H](CCCCNC(=O)/C=C/c1cc(OC)c(OC)c(OC)c1)NC(=O)/C=C/c1cc(OC)c(OC)c(OC)c1	cytopathic effect / neutral red	LAI	EC50	-	MT-2	>31.25 µM
CN(C)CCNc1nc(-c2ccccc2)nc2ccccc12	p24	LAV	EC50	-	PBMC	12.5 µM
CC(C)(C)OC(=O)N(CCCCCC(=O)OC[C@H]1O[C@@H](n2ccc(N)nc2=O)CS1)Cc1ccccc1	syncytia	LAV	EC50	-	MT-4	0.05 µM
Cc1cc(C)c(Oc2ncc(NC(=O)C(F)(F)F)c(Nc3ccc(C#N)cc3)n2)c(C)c1	MTT	RES056	EC50	-	MT-4	32 µM
Cc1nnc(C(=O)NC(C)(C)c2nc(C(=O)NCc3ccc(F)cc3)c(O)c(=O)n2C)o1	-	IIIB	EC50	-	MT-4	0.01 µM
CC1=C(C(=O)Nc2ccc(C)cc2)C2=NN=C(N)C2C(=O)N1	MTT	IIIB	EC50	-	MT-4	100 µg/mL
Cc1ccc(-c2ccc3c(c2)C=C(C(=O)Nc2ccc(C[N+](C)(C)C4CCOCC4)cc2)CCC3)cc1	p24	CM4 CLADE C	EC50	-	PBMC	<1 µM
Cc1cn([C@H]2C[C@H](N=[N+]=[N-])[C@@H](CO)O2)c(=O)[nH]c1=O	p24 / ELISA / antigen	IIIB	EC50	-	C8166	0.00217 µM
N#Cc1ccc(Nc2nc(Oc3c(Cl)cccc3Cl)ncc2N)cc1	MTT	IIIB	EC50	-	MT-4	0.023 µM
c1ccc(C2SCc3nc4cc5ccccc5cc4n32)cc1	-	RF	EC50	-	CEM + CEM-SS	>200 µM
CCCCCCCCCCCCCCCCOCCCOP(=O)(O)COCCn1cnc2c(=O)[nH]c(N)nc21	p24	-	EC50	-	-	0.00001 µM
Nc1ccn([C@@H]2CC[C@H](CO)O2)c(=O)n1	p24	RF	EC50	-	MT-4	5 µM
Cc1cn([C@H]2C[C@H](N=[N+]=[N-])[C@@H](CO)O2)c(=O)[nH]c1=O	RT activity	JV1083 (subtype G)	EC50	-	PBMC	0.00067 µM
N#Cc1ccc(Nc2nc(Oc3c(Br)cc(Br)cc3Br)ncc2NC(=O)C(F)(F)F)cc1	MTT	IIIB	EC50	-	MT-4	0.035 µM
COC(=O)C(CCCNC(=O)/C=C/c1cc(OC)c(OC)c(OC)c1)NC(=O)/C=C/c1cc(OC)c(OC)c(OC)c1	cytopathic effect / neutral red	LAI	EC50	-	MT-2	>31.3 µM
CC(C)NCC(O)CN1C(=O)C2C3CCC(C(=O)C3)C2C1=O	MTT	-	EC50	-	MT-4	>100 µM
CC(=O)Nc1cnc(Oc2c(Cl)cccc2Cl)nc1Nc1ccc(C#N)cc1	MTT	RES056	EC50	-	MT-4	>193 µM
CCCCCCCCCCCCCC(=O)OCC/C(SS/C(CCOC(=O)CCCCCCCCCCCCC)=C(\C)N(C=O)Cc1cnc(C)nc1N)=C(/C)N(C=O)Cc1cnc(C)nc1N	p24	IIIB(SI/TT)	EC50	-	CEM	<1 µM
O=C1CC2CCC1C1C(=O)N(CCCN3CCN(c4ncccn4)CC3)C(=O)C21	MTT	-	EC50	-	MT-4	>100 µM
CN[C@@H]1[C@H](O[C@@H]2OC[C@@H](O)[C@H](O)[C@H]2O)[C@@H](O)[C@H](O[C@H]2c3cc(C)c(C(=O)N[C@H](C)C(=O)O)c(O)c3-c3c(cc4c(c3O)C(=O)c3cc(OC)cc(O)c3C4=O)[C@@H]2O)O[C@@H]1C	p24 / ELISA	IIIB	EC50	-	CEM	3.3 µM
C/C(Cl)=C/COc1cc(NC(=S)c2ccoc2C)ccc1Cl	syncytia	HEPT-resistant (RT Y188H)	EC50	RT-Y188H	CEM	0.9 µg/mL
COc1ccccc1N1CCN(CC(O)CN2C(=O)C3C4CCC(C(=O)C4)C3C2=O)CC1	MTT	-	EC50	-	MT-4	>100 µM
O=C(CCCCCNCCCCNCc1ccccc1)Nc1ccn([C@@H]2CS[C@@H](CO)O2)c(=O)n1	syncytia	LAV	EC50	-	MT-4	20 µM
Nc1nc(F)nc2c1ncn2[C@@H]1O[C@H](CO)C[C@@H]1F	-	IIIB	EC50	-	CEM	1.2 µg/mL
COc1ccc(/C=C/c2cc(Cl)c3ccccc3n2)c(OC)c1	luminescence	UG070	EC50	-	TZM-bl	6.18 µM
NCCCNC(=O)c1cc2c(cn1)[nH]c1ccccc12	cytopathic effect	IIIB	EC50	-	MT-4	>1000 µM
C/C(Cl)=C/COc1cc(NC(=O)c2ccoc2C)ccc1Cl	syncytia	HEPT-resistant (RT Y188H)	EC50	RT-Y188H	CEM	10 µg/mL
O=C(NCCCC[C@H](NC(=O)c1cc(O)c(O)c(O)c1)C(=O)O)c1cc(O)c(O)c(O)c1	cytopathic effect / neutral red	LAI	EC50	-	MT-2	7.6 µM
COc1ccc(NC(=S)c2ccsc2C)cc1OCC=C(Cl)Cl	syncytia	HEPT-resistant (RT Y188H)	EC50	RT-Y188H	CEM	2 µg/mL
CN(C)CCNc1c2c(nc3ccccc13)-c1ccccc1CC2	p24	LAV	EC50	-	PBMC	1.6 µM
Nc1nc2c(ncn2[C@@H]2O[C@H](CO)C[C@@H]2F)c(=O)[nH]1	p24	LAI	EC50	-	PBL(PHA STIM.) + PBL	<7.1 µM
COc1ccc(/C=C/c2cc(Cl)c3cc(Cl)ccc3n2)c(OC)c1	luminescence	UG070	EC50	-	TZM-bl	0.61 µM
O=S(=O)(Nc1nnc2c3ccccc3cnn12)c1ccc(F)cc1S	cytopathic effect / XTT	RF	EC50	-	CEM	48 µM
COc1cc(/C=C/c2cc(Cl)c3ccccc3n2)cc(OC)c1OC	luminescence	UG070	EC50	-	TZM-bl	108 µM
O=C(CNC(=O)COc1ccccc1)NCc1ccc(C(=O)N2CCCCC2)cc1	RT activity	92UG024	EC50	-	PBMC	16 µM
C=C(Cl)COc1cc(NC(=S)c2ccoc2C)ccc1C	syncytia	Pyridone-resistant (RT Y181C)	EC50	RT-Y181C	CEM	1.47 µg/mL
CCN1C[C@H](C)n2c(c(O)c3c(=O)n(Cc4ccc(F)c(Cl)c4)nc(N4CCN(C)S4(=O)=O)c32)C1=O	-	IIIB	EC50	-	MT-4	0.0019 µM
CN1N=C(N)c2cn([C@@H]3O[C@H](COP(=O)(O)O)[C@@H](O)[C@H]3O)c3ncnc1c23	p24	IIIB	EC50	-	-	0.02 µM
CC[C@@]1(O)C(=O)OCc2c1cc1n(c2=O)Cc2cc3c(CN(C)C)c(O)ccc3nc2-1	p24	IIIB	EC50	-	PBMC	0.01 µM
COC1CN(C)C(=O)c2cc(NC(=O)NC(C)C)ccc2OC[C@H](C)N(Cc2ccc(-c3ccccn3)cc2)C[C@@H]1C	luminescence	NL4-3	EC50	-	HEK 293	2.37 µM
CC1=C(C(=O)Nc2ccc(Cl)c(OCC=C(Cl)Cl)c2)SCCO1	syncytia	TSAO-m3T-resistant (RT E138K)	EC50	RT-E138K	CEM	2 µg/mL
O=C(CCCCCNCCCCCNCc1ccccc1)Nc1ccn([C@H]2CS[C@@H](CO)O2)c(=O)n1	syncytia	PAR	EC50	-	Macrophage + Monocytes/macrophages	0.1 µM
Clc1cccc(Cl)c1C1SCc2nc3cc4ccccc4cc3n21	-	RF	EC50	-	CEM + CEM-SS	>200 µM
O=c1oc2cc(O)cc(O)c2c(O)c1-c1coc2c1c(=O)oc1cc(O)cc(O)c12	MTT	IIIB	EC50	-	MT-4	0.01 µM
CN(C)CCNc1cc(-c2ccccn2)nc2ccccc12	p24	LAV	EC50	-	PBMC	1.4 µM
Nc1nc2c(ncn2[C@H]2CC[C@@H](CO)O2)c(=O)[nH]1	cytopathic effect / XTT	LAI	EC50	-	ATH-8 + ATH8	<2 µM
O=C(CCCCCNCc1ccccc1)Nc1ccn([C@H]2CS[C@@H](COC(=O)CCCCCNCc3ccccc3)O2)c(=O)n1	syncytia	LAV	EC50	-	MT-4	10 µM
CCOC(=O)Oc1nc(=O)n([C@H]2C[C@H](N=[N+]=[N-])[C@@H](COC(=O)[C@]34CCC(C)(C)C[C@H]3C3=CC[C@@H]5[C@@]6(C)CC[C@H](O)C(C)(C)[C@@H]6CC[C@@]5(C)[C@]3(C)CC4)O2)cc1C	-	IIIB	EC50	-	MT-4	0.01 µM
CC(C)(C)OC(=O)N(CCCCCC(=O)OC[C@H]1O[C@@H](n2ccc(N)nc2=O)CS1)CCCCCN(Cc1ccccc1)C(=O)OC(C)(C)C	syncytia	LAV	EC50	-	MT-4	0.01 µM
O=C1CC2CCC1C1C(=O)N(CCCCN3CCN(c4ccccc4)CC3)C(=O)C21	MTT	-	EC50	-	MT-4	>100 µM

A second listing of 6 rows from above:

compound	method	strain or isolate	endpoint	mutations	cell line	result
O=C1CC2CCC1C1C(=O)N(CCCN3CCN(c4ncccn4)CC3)C(=O)C21	MTT	-	EC50	-	MT-4	>100 µM
COc1ccc(NC(=S)c2ccsc2C)cc1OCC=C(Cl)Cl	syncytia	HEPT-resistant (RT Y188H)	EC50	RT-Y188H	CEM	2 µg/mL
O=C(/C=C/c1ccc(O)c(O)c1)NCCCC(NC(=O)/C=C/c1ccc(O)c(O)c1)C(=O)O	cytopathic effect / neutral red	LAI	EC50	-	MT-2	7.2 µM
Cc1cn([C@H]2C=C[C@@H](CO)O2)c(=O)[nH]c1=O	-	IIIB	EC50	-	CEM + CEM/0	0.16 µM
CN[C@@H]1[C@H](O[C@@H]2OC[C@@H](O)[C@H](O)[C@H]2O)[C@@H](O)[C@H](O[C@H]2c3cc(C)c(C(=O)N[C@H](C)C(=O)O)c(O)c3-c3c(cc4c(c3O)C(=O)c3cc(OC)cc(O)c3C4=O)[C@@H]2O)O[C@@H]1C	p24 / ELISA	IIIB	EC50	-	CEM	3.3 µM
Nc1nc(F)nc2c1ncn2[C@@H]1O[C@H](CO)C[C@@H]1F	-	IIIB	EC50	-	CEM	1.2 µg/mL